# From ChEMBL document CHEMBL4024787, “Target Identification and Mode of Action of Four Chemically Divergent Drugs against Ebolavirus Infection” (J Med Chem, 2018)
# Biological target: T1, Envelope glycoprotein (Zaire ebolavirus (strain Mayinga-76) (ZEBOV) (Zaire Ebola virus)) (UniProt Q05320)
# T1 sequence (whole entry): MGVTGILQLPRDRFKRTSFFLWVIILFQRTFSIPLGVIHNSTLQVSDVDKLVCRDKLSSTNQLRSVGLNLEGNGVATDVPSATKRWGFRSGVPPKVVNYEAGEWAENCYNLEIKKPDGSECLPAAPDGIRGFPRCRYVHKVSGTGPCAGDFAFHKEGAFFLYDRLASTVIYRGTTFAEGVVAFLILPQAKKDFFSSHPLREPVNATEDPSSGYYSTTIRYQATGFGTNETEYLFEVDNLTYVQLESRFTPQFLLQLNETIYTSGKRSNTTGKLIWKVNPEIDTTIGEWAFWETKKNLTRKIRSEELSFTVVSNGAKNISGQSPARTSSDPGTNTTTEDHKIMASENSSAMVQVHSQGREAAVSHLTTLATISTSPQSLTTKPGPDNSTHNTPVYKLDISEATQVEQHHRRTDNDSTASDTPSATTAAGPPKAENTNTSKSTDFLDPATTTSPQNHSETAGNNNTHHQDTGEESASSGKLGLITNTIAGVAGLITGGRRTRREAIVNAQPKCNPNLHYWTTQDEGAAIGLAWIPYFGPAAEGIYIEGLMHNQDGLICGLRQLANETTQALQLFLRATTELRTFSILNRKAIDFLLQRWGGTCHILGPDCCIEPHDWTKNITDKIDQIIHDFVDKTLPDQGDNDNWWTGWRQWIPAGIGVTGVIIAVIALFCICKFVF
# Assay: Binding affinity to Ebola virus Zaire Mayinga-76 recombinant GP protein assessed as change in melting temperature at 500 uM by SYPRO orange dye-based fluorescence assay
# Details: 1976
structure (smiles),measurement,value
CN(C)CCOc1ccc(/C(=C(/CCCl)c2ccccc2)c2ccccc2)cc1 [TOREMIFENE],ΔTm,-15 °C
